In the data set the test system is S. mutans. Description: Selective permeabilization by STAMP, luciferase luminescence detection. It is filed as cell-based, Streptococcus mutans. To be noted: 10 minutes at room temperature.

Regarding “TFFRLFNRSFTQALGKGGGKNLRIIRKGIHIIKKY [C16G2]”, the “ability of the assay to detect S. mutans in saliva” value (S. mutans spiked in fresh unfiltered unstimulated saliva, luciferase luminescence (FIG. 4)) is “capable of quantifying S. mutans spiked in a fresh unfiltered saliva sample”. For the same sequence, the “detection level of the assay” value (cultured S. mutans serially diluted in growth media, luciferase luminescence (FIG. 3)) is on record as 10^4 cells/ml.

These data come from US20120003661A1, “METHODS AND DEVICES FOR THE SELECTIVE DETECTION OF MICROORGANISMS” (C3 JIAN, INC., priority 2010, published 2012).
